Measured values from several laboratories, pooled; numbers as filed in NIAID ChemDB.

Common to all: whole-cell or culture tests; species: Hepatitis C virus; measure: EC50

Two numbers with a dash give a range or band. ECn: concentration that inhibits the pathogen or its effect by n%. Conditions beyond the fields shown may differ between rows. Blank or dashed fields: not listed here.

| smiles | cells | method | setting | strain or isolate | mutations | value |
|---|---|---|---|---|---|---|
| CCOC(=O)c1c(COc2ccccc2)n(C)c2cc(Br)c(O)c(CN(N3CCC(CO)CC3)N3CCC(CO)CC3)c12 | Huh7 | ELISA |  | Genotype 1A |  | 50.6 µM |
| CNC(=O)c1c(-c2ccncc2)oc2ccc(OC)cc12 | Huh7 | replicon |  |  |  | <100 µM |
| COC1c2ccccc2-c2c(C3CCCCC3)c3ccc(C(=O)NC4(C(=O)Nc5ccc(/C=C/C(=O)O)cc5)CCCC4)cc3n21 | Huh7 | replicon |  |  |  | 0.01–1 µM |
| Cn1cc(Cl)c(C(=O)N2c3cccc(O)c3NC3=C(C(=O)CC(C)(C)C3)C2c2ccc(OCc3ccccc3)cc2F)n1 |  | luciferase / reporter gene / replicon |  | 1b |  | 1.49 µM |
| CCOC(=O)c1csc(CN(c2cc3oc(-c4ccc(F)cc4)c(C(=O)NC)c3cc2OC(C)C)S(C)(=O)=O)n1 | Huh7 | replicon |  |  |  | <10 µM |
| CC1(C)CC(=O)C2=C(C1)Nc1c(O)cccc1NC2c1ccco1 |  | luciferase / reporter gene / replicon |  | 1b |  | 57.5 µM |
| CCc1ccc2c(c1)c(Sc1ccc(N)cc1)cc(=O)n2C | Huh-Luc-Neo | luciferase / replicon |  |  |  | <1 µM |
| CNC(=O)c1c(-c2ccc(F)cc2)oc2cc(C3CCN(C(C)=O)C3)c(OC)cc12 | Huh7 | replicon |  |  |  | <10 µM |
| CCOC(=O)c1c(CO)n(C)c2cc(-c3cccnc3)c(O)c(CN(C)C)c12 | Huh7.3 | ELISA |  |  |  | 74.8 µM |
| CNC(=O)c1c(-c2ccc(F)cc2)oc2cc(N(Cc3ccc(B(O)O)c(F)c3)S(C)(=O)=O)c(C3CC3)cc12 | Huh7.5 | luciferase |  | HCVcc virus (JC1p7Fluc2a) |  | 0.047 µM |
| CCOC(=O)c1c(CSc2ccccc2)n(C)c2cc(C#N)c(O)c(CN(N3CCN(CCOCCO)CC3)N3CCN(CCOCCO)CC3)c12 | Huh7 | ELISA |  | Genotype 1A |  | 36.9 µM |
| O=C(NS(=O)(=O)C1CC1)c1ccc2c(C3CCCCC3)c3n(c2c1)CCCc1ncccc1-3 | Huh7 | replicon |  |  |  | 0.01–1 µM |
| COc1ccc2c(c1)c(Sc1ccc(C)cc1)cc(=O)n2C | Huh-Luc-Neo | luciferase / replicon |  |  |  | <1 µM |
| CC1(C)CC(=O)C2=C(C1)Nc1c(O)cccc1N(C(=O)c1ccon1)C2c1ccc(OCc2ccccc2)cc1F |  | luciferase / reporter gene / replicon |  | 1b |  | 0.88 µM |
| CNC(=O)c1c(-c2ccc(F)cc2)oc2cc(-c3cccnc3)c(OC(C)C)cc12 | Huh7 | replicon |  |  |  | <10 µM |
| Nc1nc2cnc(N3CCC(Oc4cc(F)ccc4Br)CC3)nc2s1 | Huh7 | PCR |  | GT1a |  | 0.01 µM |
| O=C(N[C@@H](C(=O)N1CCC[C@H]1c1ncc(-c2ccc(-c3ccc(-c4cnc([C@@H]5CCCN5C(=O)[C@H](NC(=O)C5CC5)c5ccccc5)s4)cc3)cc2)s1)c1ccccc1)C1CC1 | Huh7.5 | luciferase / reporter gene |  | genotype 1b |  | 0.0000033 µM |
| CCOC(=O)c1c(C)n(C)c2cc(F)c(O)cc12 | Huh7.3 | ELISA |  |  |  | 9.8 µM |
| CCCCn1c(=O)c2cc(OC)ccc2c2cc(C(O)(C(F)(F)F)C(F)(F)F)c(OC)cc21 | LucNeo2 cells | PCR |  | 1b |  | 0.25 µM |
| CCOC(=O)c1c(CSc2ccccc2)n(C)c2cc(C#N)c(O)c(CN(N(C)C)N(C)C)c12 | Huh7 | ELISA |  | Genotype 1A |  | 28.9 µM |
| CNC(=O)c1c(-c2ccncc2)oc2ccc(F)cc12 | Huh7 | replicon |  |  |  | >30 µM |
| O=C(O)c1ccc2c(C3CCCCC3)c3n(c2c1)CC(C(=O)N1CCOCC1)=Cc1cccnc1-3 | Huh7 | replicon |  |  |  | 0.01–1 µM |
| COc1c(-c2ccc3cc(NS(C)(=O)=O)ccc3c2)cc(-n2ccc(=O)[nH]c2=O)cc1C(C)(C)C | Huh7 | luciferase |  | genotype 1b | P495A | 0.0043 µM |
| OCc1nnc(-c2ccc(N3CC(Oc4ccccc4C(F)(F)F)C3)nn2)o1 | Huh7 | PCR | 50% human serum | GT1b |  | >40 µM |
| Cc1ccc2c(c1)c(Sc1ccc(Br)cc1)cc(=O)n2C | Huh-Luc-Neo | luciferase / replicon |  |  |  | <1 µM |
| OCc1nnc(-c2ccc(N3CCC(Oc4ccccc4C(F)(F)F)CC3)nn2)o1 | Huh7 | PCR |  | GT1a |  | 0.00074 µM |
| CNC(=O)c1c(-c2ccc(F)cc2)oc2cc(C3(C)CNC(=O)O3)c(OC(C)C)cc12 | Huh7 | replicon |  |  |  | <1 µM |
| COc1ccc(C(=O)N2c3cccc(O)c3NC3=C(C(=O)CC(C)(C)C3)[C@@H]2c2ccc(OCc3ccccc3)cc2F)nc1Cl |  | luciferase / reporter gene / replicon |  | 1b |  | 1.03 µM |
| Cn1c(=O)cc(Sc2ccc(N)cc2)c2ccccc21 | Huh-Luc-Neo | luciferase / replicon |  |  |  | <1 µM |
| CN(C)S(=O)(=O)NC(=O)c1ccc2c(C3CCCCC3)c3n(c2c1)C[C@@H](O)[C@@H](O)c1ccccc1-3 | Huh7 | replicon |  |  |  | 0.01–1 µM |
| CC1(C)CC(=O)C2=C(C1)Nc1c(O)cccc1NC2c1ccc(Cl)c(Cl)c1 |  | luciferase / reporter gene / replicon |  | 1b |  | 15.8 µM |
| Cn1c(=O)cc(Sc2ccc(Cl)cc2)c2ccccc21 | Huh-Luc-Neo | luciferase / replicon |  |  |  | 1–10 µM |
| CC1(C)CC(=O)C2=C(C1)Nc1c(O)cccc1N(C(=O)c1ccc(C(=O)O)cc1)C2c1ccc(OCc2ccccc2)cc1Cl |  | luciferase / reporter gene / replicon |  | 1b |  | >32 µM |
| CNC(=O)c1c(-c2ccc(F)cc2)oc2cc(N(Cc3nsc(Cl)n3)S(C)(=O)=O)c(OC(C)C)cc12 | Huh7 | replicon |  |  |  | <10 µM |
| C=CCCNC(=O)CCC(=O)N1c2cccc(O)c2NC2=C(C(=O)CC(C)(C)C2)C1c1ccc(OCc2ccccc2)cc1Cl |  | luciferase / reporter gene / replicon |  | 1b |  | 8.75 µM |
| COC(=O)N[C@H](C(=O)N1CCCC1c1ncc(-c2ccc(-c3ccc(-c4cnc([C@@H]5CC(C)CN5C(=O)[C@@H](NC(=O)CO)C(C)C)[nH]4)cc3)cc2)[nH]1)C(C)C | Luc1a.1.19 | luciferase |  | 1a |  | 0.0000231 µM |

The last 5 rows once more:

smiles,cells,method,setting,strain or isolate,mutations,value
Cn1c(=O)cc(Sc2ccc(Cl)cc2)c2ccccc21,Huh-Luc-Neo,luciferase / replicon,,,,1–10 µM
CC1(C)CC(=O)C2=C(C1)Nc1c(O)cccc1N(C(=O)c1ccc(C(=O)O)cc1)C2c1ccc(OCc2ccccc2)cc1Cl,,luciferase / reporter gene / replicon,,1b,,>32 µM
CNC(=O)c1c(-c2ccc(F)cc2)oc2cc(N(Cc3nsc(Cl)n3)S(C)(=O)=O)c(OC(C)C)cc12,Huh7,replicon,,,,<10 µM
C=CCCNC(=O)CCC(=O)N1c2cccc(O)c2NC2=C(C(=O)CC(C)(C)C2)C1c1ccc(OCc2ccccc2)cc1Cl,,luciferase / reporter gene / replicon,,1b,,8.75 µM
COC(=O)N[C@H](C(=O)N1CCCC1c1ncc(-c2ccc(-c3ccc(-c4cnc([C@@H]5CC(C)CN5C(=O)[C@@H](NC(=O)CO)C(C)C)[nH]4)cc3)cc2)[nH]1)C(C)C,Luc1a.1.19,luciferase,,1a,,0.0000231 µM